Patent US8748411B2, “Antineoplastic compounds and pharmaceutical compositions thereof” (Centro de Ingenieria Genetica y Biotechnologia, priority 2005, dated 2014)

Amino acid sequences for entries named in this document (tags omitted). A change or cut given only in a name is not applied to a line headed by its entry.
UniProt P03129: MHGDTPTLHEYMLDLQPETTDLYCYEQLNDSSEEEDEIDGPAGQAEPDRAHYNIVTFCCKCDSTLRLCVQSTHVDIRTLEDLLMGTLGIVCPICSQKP

Molecular target: oncoprotein E7 from Human Papilloma Virus type 16 as GST fusion protein (E7-GST), phosphorylated by CK2 enzyme (Human papillomavirus type 16, UniProt P03129)
Settings: read-out: Inhibitory concentration 50 (IC50); E7-GST preincubated 1 h at 37° C. with compound; reaction 40 minutes at 37° C., 100 μM ATP

NNC(=O)NP(=O)(NC(=O)NN)NC(=O)NN
IC50: 22 nM
